Results published in PubChem BioAssay AID588501 (NMMLSC, 2011).
The list shows a part of the results, in another mix than the full data. The source made the active and inactive calls. No stated cut-off is given here; in the data, active means inhibition above about 30%; inconclusive means no clear call, values can overlap the other calls; inactive means below that.

Sequences of proteins named here, by UniProt entry; tags and fusion partners are left off.
UniProt P15917, whole entry, looked up: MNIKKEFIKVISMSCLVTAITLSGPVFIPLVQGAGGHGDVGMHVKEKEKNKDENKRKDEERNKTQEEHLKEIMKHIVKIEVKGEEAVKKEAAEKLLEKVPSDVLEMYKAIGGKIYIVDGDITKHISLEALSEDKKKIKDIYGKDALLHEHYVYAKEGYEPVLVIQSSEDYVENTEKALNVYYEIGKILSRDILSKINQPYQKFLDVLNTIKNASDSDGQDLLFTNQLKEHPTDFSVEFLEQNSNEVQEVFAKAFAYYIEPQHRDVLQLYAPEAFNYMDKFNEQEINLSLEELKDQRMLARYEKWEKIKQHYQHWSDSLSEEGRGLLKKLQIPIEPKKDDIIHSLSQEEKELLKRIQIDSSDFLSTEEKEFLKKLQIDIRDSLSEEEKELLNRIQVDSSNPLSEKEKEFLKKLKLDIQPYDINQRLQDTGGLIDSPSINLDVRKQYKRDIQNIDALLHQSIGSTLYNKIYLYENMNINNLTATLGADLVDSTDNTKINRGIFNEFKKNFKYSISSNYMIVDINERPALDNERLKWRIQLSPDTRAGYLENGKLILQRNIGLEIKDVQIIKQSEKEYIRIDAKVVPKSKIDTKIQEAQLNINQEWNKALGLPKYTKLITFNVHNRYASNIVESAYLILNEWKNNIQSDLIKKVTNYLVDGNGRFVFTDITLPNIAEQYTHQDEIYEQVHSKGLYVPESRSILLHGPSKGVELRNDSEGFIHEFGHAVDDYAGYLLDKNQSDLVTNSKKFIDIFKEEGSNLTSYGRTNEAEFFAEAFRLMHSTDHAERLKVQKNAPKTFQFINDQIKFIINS

target: Lethal factor (Bacillus anthracis) (UniProt P15917); test: anthrax lethal factor cleavage blockers – biochemical, multiplex microsphere, MLPCN library, primary screen (AID 588501); conditions: multiplex microsphere protease cleavage assay, LF; at 10 µM; active compounds read high; further: plate controls were buffer without enzyme for full effect and enzyme alone for no effect

Compound	inhibition
CC(C)(C)C(=O)NC(Sc1ccncn1)C(Cl)(Cl)Cl (stereo unspecified)	inactive: -1.2%
O=[N+]([O-])c1ncn(CCn2ncnc2[N+](=O)[O-])n1	inactive: 1.9%
O=[N+]([O-])c1cccc2n[nH]nc12	inactive: -3.8%
CC(=O)N1C2C3N(C(C)=O)C1C1N(C(C)=O)C(C(N1C(C)=O)N3C(C)=O)N2C(C)=O	inactive: -2.7%
Cc1ccc(NP(=O)(Oc2ccccc2)Oc2ccccc2)nc1	inactive: 2.2%
CCc1nc2c(n1)c1c(non1O)c1c2no[n+]1[O-]	inactive: -0.2%
O=[N+]([O-])c1cc([N+](=O)[O-])c(CCNc2ccccc2)c([N+](=O)[O-])c1	inactive: -8%
COc1ccc(C2=NCC(CBr)S2)cc1 (stereo unspecified)	inactive: -8.2%
CC(C)=N/N=C(\N)N[N+](=O)[O-]	inactive: -0.1%
CC(C)c1nc(Nc2ccccc2)n(P(=O)(N(C)C)N(C)C)n1	inactive: -7.2%
CN(C)C(=O)OCCc1n(C)cc[n+]1C	inactive: 0.9%
c1cc(-c2nn[nH]n2)ccc1-c1nn[nH]n1	inactive: 1.5%
CC1CCN(C(=O)Oc2c(Cl)cc(Cl)c3cccnc23)CC1	inactive: 0.9%
Nc1ccc([As](=O)(O)c2ccc(N)cc2)cc1	inactive: -1.8%
C[N+]1=C2C=CC=CC=C2SC12C([N+](=O)[O-])=CC([N+](=O)[O-])=C[C-]2[N+](=O)[O-] (stereo unspecified)	inactive: 0.7%
CCN(/C(=N/P(=O)(N1CCOCC1)N1CCOCC1)N1CCOCC1)c1ccc(OC)cc1	inactive: -0.1%
O=C(COc1ccccc1)OC1CN2CCC1CC2 (stereo unspecified)	inactive: -2%
O=C(Nc1ccncc1[N+](=O)[O-])c1ccc([N+](=O)[O-])cc1[N+](=O)[O-]	inactive: -5%
O=C(O)C(=O)c1ccc(N(CCCl)CCCl)cc1	inactive: -7.4%
COP1(=S)c2c(C)nn(CCC#N)c2N=C(c2ccc(F)cc2)N1C (stereo unspecified)	inactive: -2.8%
COC(=O)C1(C)COP(=O)(N2CCCC2)OC1 (stereo unspecified)	inactive: 3%
CCC(C)N(CC(C)C)C(=S)SC(NC(C)=O)C(Cl)(Cl)Cl (stereo unspecified)	inactive: 2.6%
CCOC(=O)c1ccc(NC(=O)C(C)(CCl)SC)cc1 (stereo unspecified)	inactive: 4%
O=C(OC1CN2CCC1CC2)c1cccc([N+](=O)[O-])c1 (stereo unspecified)	inactive: 1.5%
CSc1ccc(Nc2c([N+](=O)[O-])cc([N+](=O)[O-])cc2[N+](=O)[O-])cc1	inactive: -7.5%
Cc1cc(SC(NC(=O)c2ccccc2)C(Cl)(Cl)Cl)nc(C(C)C)n1 (stereo unspecified)	inactive: -1.6%

Compound	inhibition
COP(=O)(OC)N1CC1c1ccccc1 (stereo unspecified)	inactive: 6.5%
CC1CCNP(=O)(N(CCCl)CCCl)O1 (stereo unspecified)	inactive: -2.8%
CCOC(=O)Nc1ccc([As](=O)(O)O)c(O)c1	inactive: -6.3%
O=C(O)C(O)c1ccc(N(CCCl)CCCl)cc1 (stereo unspecified)	inactive: -1.5%
O=[N+]([O-])c1ccc(Nc2ccc(Oc3ccc([N+](=O)[O-])cc3[N+](=O)[O-])cc2)c([N+](=O)[O-])c1	inactive: -3.8%
O=P(Nc1ccccn1)(c1cccc2ccccc12)c1cccc2ccccc12	inactive: -2%
Cc1cc(SC(NC=O)C(Cl)(Cl)Cl)ncn1 (stereo unspecified)	inactive: -1.3%
CCOC(=O)Nc1cccc([As](=O)(O)O)c1	inactive: 1.8%
Cc1ccc2nc3c(c(C)c2c1)CC(C(Cl)Cl)S3 (stereo unspecified)	inactive: 0.6%
[N-]=[N+]=NC1CCCCC1NC(=O)c1cc([N+](=O)[O-])cc([N+](=O)[O-])c1 (stereo unspecified)	inactive: 5.6%
Cc1ccc(OP(=O)(Nc2ccc([N+](=O)[O-])cn2)Oc2ccc(C)cc2)cc1	inactive: -6.9%
C[As](=O)(O)c1cccc(C(=O)O)c1	inactive: -7.1%
O=[As](O)(c1ccc(O)cc1)c1ccccc1O	inactive: -8.1%
O=[N+]([O-])c1ccc(-c2cc([N+](=O)[O-])c(O)c([N+](=O)[O-])c2)cc1	inactive: -4.9%
CCN(CC)C(=S)SC(NC=O)C(Cl)(Cl)Cl (stereo unspecified)	inactive: 3.5%
O=C(OC1CN2CCC1CC2)c1cccc2[nH]cnc12 (stereo unspecified)	inactive: 18.7%
CC(C)NC(=O)NP(=O)(Oc1ccccc1)Oc1ccccc1	inactive: -1.7%
O=[N+]([O-])c1cc([N+](=O)[O-])c(-c2ccn[nH]2)s1	inactive: -1.6%
CC(C)c1ccc(OP(=O)(Nc2ccccn2)Oc2ccccc2F)cc1 (stereo unspecified)	inactive: 7.2%
COC(=O)C1(C)COP(=O)(N2CCCCCC2)OC1 (stereo unspecified)	inactive: 1%
ClCCSc1nnc(-c2cccnc2)o1	inactive: 6.2%
COc1ccc2nc(NP(=O)(c3ccccc3)c3ccccc3)sc2c1	inactive: -5.8%
COc1cc(I)ccc1[As](=O)(O)O	inactive: -5.5%
O=P1(N(CCCl)CCCl)OCCCN1CCCl (stereo unspecified)	inactive: 1%
O=P1(N(CCCl)CCCl)Nc2ccccc2N1	inactive: -11.4%
O=C(OC1CN2CCC1CC2)C12CC3CC(CC(C3)C1)C2 (stereo unspecified)	inactive: -0.1%

Compound	inhibition
Cc1cc(=O)[nH]c(N[N+](=O)[O-])n1	inactive: 0.6%
Cc1c2c(nc3ccccc13)SC(C(Cl)Cl)C2 (stereo unspecified)	inactive: -1.1%
COc1ccc(N/C(=N/P(=O)(N2CCOCC2)N2CCOCC2)N2CCOCC2)cc1	inactive: -1.7%
O=[N+]([O-])c1cc(Oc2ccc([N+](=O)[O-])cc2C(F)(F)F)cc([N+](=O)[O-])c1	inactive: 4.7%
O=[As](O)(c1cccc(O)c1)c1cccc(O)c1	inactive: -1%
Cc1cccc(OCC(=O)OC2CN3CCC2CC3)c1 (stereo unspecified)	inactive: -0.1%
O=[As](O)(O)c1cccnc1	inactive: 0.9%
CS(=O)(=O)c1ccc(Cl)c(NC(=O)COC(=O)C(O)(c2ccccc2)c2ccccc2)c1	inactive: -4.8%
COc1cc(C2NCCC3(OCCO3)C2(C)C)cc(OC)c1OC (stereo unspecified)	inactive: -0.8%
CCOP(=O)(Nc1cccc2ccccc12)OCC	inactive: 0.8%
CCCOP(=S)(Nc1nc(N)cc(=O)[nH]1)OCCC	inactive: -4.8%
Cc1ccc(NCCc2c([N+](=O)[O-])cc([N+](=O)[O-])cc2[N+](=O)[O-])cc1	inactive: -1.6%
Nc1cccc2c([As](=O)(O)O)cccc12	inactive: 16.6%
Nc1ccccc1[As](=O)(O)c1ccccc1	inactive: 1.7%
O=C(O)COc1ccc([As](=O)(O)O)cc1[N+](=O)[O-]	inactive: 9.4%
CCOP1(=S)c2c(C)nn(CCC#N)c2N=C(c2ccccc2F)N1C (stereo unspecified)	inactive: 0.7%
O=P(Nc1nccs1)(c1ccccc1)c1nc2ccccc2s1 (stereo unspecified)	inactive: 4.8%
O=P(Nc1nccs1)(Oc1ccccc1)Oc1ccccc1	inactive: 0%
CN(C)C(=O)c1cc([N+](=O)[O-])cc2c1-c1c(cc([N+](=O)[O-])cc1[N+](=O)[O-])C2=O	inactive: -1.5%
O=[N+]([O-])c1ccc2c(c1)nnn2O	inactive: -2.8%
CN(C(=O)Cc1ccc(Cl)c(Cl)c1)[C@H]1CC[C@@]2(CCCO2)C[C@@H]1N1CCCC1	inactive: -13.3%
N#CCCN(C(=O)COC(=O)C(O)(c1ccccc1)c1ccccc1)c1ccc(F)cc1	inactive: -56.8%
CCOP1(=S)c2c(C)nn(CCC#N)c2N=C(c2ccc(F)cc2)N1C (stereo unspecified)	inactive: -2.6%
CN(C(=O)Cc1ccccc1)[C@@H]1CC[C@]2(CCCO2)C[C@H]1N1CCCC1	inactive: -4.7%
NC(=O)Nc1ccc([As](=O)(O)O)cc1	inactive: -5.3%
O=C(/C=C/c1ccccc1)OC1CN2CCC1CC2 (stereo unspecified)	inactive: -2.4%

Compound	inhibition
CCCC1OP(=O)(Nc2ccccc2)OCC1CC (stereo unspecified)	inactive: -0.2%
Cc1nn(-c2ccccc2)c2c1P(=O)(N1CCOCC1)N(C)C(c1ccccc1)=N2 (stereo unspecified)	inactive: 3.9%
CC1CCC(C(C)C)C(OP(=O)(Nc2ccccn2)c2ccccc2)C1 (stereo unspecified)	inactive: 4%
Cc1ccc(C(=O)OC2CN3CCC2CC3)cc1 (stereo unspecified)	inactive: 13.2%
O=P1(Nc2ccc(Br)cn2)COc2ccccc2OC1	inactive: -1.2%
NS(=O)(=O)c1cccc(NC(=O)COC(=O)C(O)(c2ccccc2)c2ccccc2)c1	inactive: -2.5%
Cc1ccc(OCC(=O)OC2CN3CCC2CC3)cc1 (stereo unspecified)	inactive: -1.3%
O=[As](O)(c1cccs1)c1cccs1	inactive: 4.6%
Nc1cccc([As](=O)(O)c2ccccc2)c1	inactive: 5.5%
O=P1(Nc2ncccn2)COc2ccccc2OC1	inactive: -1%
Cc1ccc(S(=O)(=O)N(CCCN)CCCc2c(C)nc(N)[nH]c2=O)cc1	inactive: -1.5%
O=P1(N(CCCl)CCCl)NCCC(C(F)(F)F)O1 (stereo unspecified)	inactive: -8.9%
Clc1n[nH]nc1-c1nn[nH][15n]1	inactive: -226%
CC(C)(C)C(=O)NC(Sc1ncccn1)C(Cl)(Cl)Cl (stereo unspecified)	inactive: 0.1%
CN(CCCl)Cc1cc(Cl)c(NC2=NCCN2)c(Cl)c1	inactive: -3.6%
CCOP(=O)(Nc1ccc(C)cn1)OCC	inactive: -3.2%
O=P1(Nc2ccccn2)COc2ccccc2OC1	inactive: 1%
CCC1=CC2Cc3nc4ccc(Cl)cc4c(N)c3C(C1)C2 (stereo unspecified)	inactive: 3.9%
CCOP(=O)(NC(=NC(C)c1ccccc1)NC(C)c1ccccc1)OCC (stereo unspecified)	inactive: 4.7%
CC1(CBr)Cn2c(nc3ccccc3c2=O)S1 (stereo unspecified)	inactive: -0.7%
CC(C)/C=N\N=C(\N)N[N+](=O)[O-]	inactive: 0.4%
CN(C(=O)Cc1ccc(Cl)c(Cl)c1)[C@@H]1CCCC[C@H]1N1CCCC1	inactive: 0.4%
COc1ccccc1CNC(=O)COC(=O)C(O)(c1ccccc1)c1ccccc1	inactive: 3.3%
